Measured values from several laboratories, pooled; numbers as filed in NIAID ChemDB.

Common to all: growth or infection tests; species: HIV-1

Two numbers with a dash give a range or band. An empty or dashed field is not shown. Rows are shuffled and stem from different studies. ECn: concentration that inhibits the pathogen or its effect by n%.

SMILES	strain or isolate	read-out	mutations	cell line	method	result
CC/C=C\C/C=C\C/C=C\C/C=C\C/C=C\C/C=C\CCC(=O)O[C@@H]1[C@@H](C)[C@@]2(O)[C@@H](C=C(CO)C[C@]3(O)C(=O)C(C)=C[C@@H]23)[C@@H]2C(C)(C)[C@]12OC(=O)CCC	IIIB	EC50	-	C8166	p24 / ELISA	0.0283 µM
O=C(NC1(C(=O)O)CCCC1)c1ccccc1SSc1ccccc1C(=O)NC1(C(=O)O)CCCC1	IIIB	EC50	-	CEM	cytopathic effect / XTT	>16 µM
Nc1ncnc2c1ncn2[C@@H]1C=C(CO)[C@@H](O)[C@H]1O	A018 POST-AZT	EC50	-	PBMC	p24	0.001 µM
CCN1c2ncc(CCOc3ccc(CC(=O)O)c4ccccc34)cc2C(=O)Nc2c(C)cc(Cl)nc21	-	EC50	RT-K103N Y181C	C8166	p24	0.1–1 µM
CC1(C)NCCCn2c1nc(C(=O)NCc1ccc(F)cc1)c(O)c2=O	-	EC95	-	MT-4	p24	<1 µM
CCOC(=O)CCc1nc(-c2ccc(S(=O)(=O)N(CC(C)C)C[C@@H](O)[C@H](Cc3ccccc3)NC(=O)O[C@H]3CO[C@H]4OCC[C@H]43)cc2)co1	LAI	EC50	-	MT-4	cytopathic effect / MTT	0.02 µM
CCCCCCCCCCCCCCCCCCCC(=O)O[C@@H]1[C@@H](C)[C@@]2(O)[C@@H](C=C(COC(C)=O)C[C@]3(O)C(=O)C(C)=C[C@@H]23)[C@@H]2C(C)(C)[C@]12O	IIIB	EC50	-	C8166	p24 / ELISA	>200 µM
CCN1c2ncc(CCOc3ccc(NS(=O)(=O)C(F)(F)F)c4ccccc34)cc2C(=O)N(C)c2ccc(F)nc21	-	EC50	RT-K103N Y181C	C8166	p24	<0.1 µM
CCOCn1c(Cc2cc(Cl)cc(Cl)c2)c(CC)c(=O)[nH]c1=O	NNRTI-resistant (RT Y181C) N119	EC50	RT-Y181C	MT-4	cytopathic effect / MTT	>10 µM
CC1=C[C@H]2[C@@]3(O)[C@H](C)[C@@H](OC(=O)CCc4ccccc4)[C@]4(O)[C@H]([C@@H]3C=C(CO)C[C@]2(O)C1=O)C4(C)C	IIIB	EC50	-	C8166	p24 / ELISA	51.6 µM
COc1cccc(-c2nc(-c3ccc(S(=O)(=O)N(CC(C)C)C[C@@H](O)[C@H](Cc4ccccc4)NC(=O)O[C@H]4CO[C@H]5OCC[C@H]54)cc3)co2)c1	-	EC50	PR-L010F M046I M071V I084V	MT-4	cytopathic effect / MTT	0.77 µM
CC(C)CN(C[C@@H](O)[C@H](Cc1ccccc1)NC(=O)O[C@H]1CO[C@H]2OCC[C@H]21)S(=O)(=O)c1ccc2c(c1)OCO2	MDR/C	EC50	-	PHA-PBM	p24	0.0027 µM
CC(C)(NC(=O)c1ccccc1SSc1ccccc1C(=O)NC(C)(C)C(=O)O)C(=O)O	IIIB	EC50	-	CEM	cytopathic effect / XTT	25 µM
Cc1cccc(C)c1OCC(=O)N[C@@H](Cc1ccccc1)[C@H](O)CN(CC(C)C)S(=O)(=O)c1ccc(-c2ccn[nH]2)cc1	LAI	EC50	-	MT-4	cytopathic effect / MTT	0.079 µM
CCOCn1c(Cc2ccccc2)c(C(C)C)c(=O)[nH]c1=O	GB8	EC50	-	JM	p24	0.0016 µM
CC(=O)OC(c1ccccc1)c1nc(-c2ccc(S(=O)(=O)N(CC(C)C)C[C@@H](O)[C@H](Cc3ccccc3)NC(=O)O[C@H]3CO[C@H]4OCC[C@H]43)cc2)co1	LAI	EC50	-	MT-4	cytopathic effect / MTT	0.005 µM
CC(C)[C@@H](/C=C/CO)NC(=O)c1ccccc1SSc1ccccc1C(=O)N[C@H](/C=C/CO)C(C)C	IIIB	EC50	-	CEM	cytopathic effect / XTT	>9 µM
CCc1c(Cc2cc(Cl)cc(Cl)c2)n(COC2Cc3ccccc3C2)c(=O)[nH]c1=O	NNRTI-resistant (RT Y181C) N119	EC50	RT-Y181C	MT-4	cytopathic effect / MTT	2.1 µM
CN1CCc2nc(C(=O)NCc3ccc(F)cc3)c(O)c(=O)n2C1=O	-	EC50	-	MT-4	p24	<50 µM
CNc1nc(-c2ccc(S(=O)(=O)N(CC(C)C)C[C@@H](O)[C@H](Cc3ccccc3)NC(=O)COc3c(C)cccc3C)cc2)c(Br)s1	LAI	EC50	-	MT-4	cytopathic effect / MTT	5.012 µM
CCN1c2ncc(CCOc3ccc(CC(=O)O)c4ccccc34)cc2C(=O)N(C)c2ccc(Cl)nc21	WT	EC50	-	C8166	p24	<0.1 µM
CC/C=C\C/C=C\C/C=C\C/C=C\C/C=C\CCCC(=O)O[C@@H]1[C@@H](C)[C@@]2(O)[C@@H](C=C(CO)C[C@]3(O)C(=O)C(C)=C[C@@H]23)[C@@H]2C(C)(C)[C@]12OC(C)=O	IIIB	EC50	-	C8166	syncytia / visual reading	0.0606 µM
Cc1cccc(C)c1OCC(=O)N[C@@H](Cc1ccccc1)[C@H](O)CN(CC(C)C)S(=O)(=O)c1ccc(-c2csc(N)n2)cc1	LAI	EC50	-	MT-4	cytopathic effect / MTT	1.259 µM
CC[C@@H](C)[C@@H](CC(=O)O)NC(=O)c1ccccc1SSc1ccccc1C(=O)N[C@H](CC(=O)O)[C@H](C)CC	IIIB	EC50	-	CEM	cytopathic effect / XTT	3.2 µM
CC1c2nc(C(=O)NCc3ccc(F)cc3)c(O)c(=O)n2CCN1C(=O)C(=O)N(C)C	-	EC50	-	MT-4	p24	<50 µM
O=C(O)C[C@H](Cc1ccccc1)NC(=O)c1ccccc1SSc1ccccc1C(=O)N[C@H](CC(=O)O)Cc1ccccc1	IIIB	EC50	-	CEM	cytopathic effect / XTT	2.1 µM
CCN1c2ncc(CCOc3ccc(CCC(=O)O)c4c3CCCC4)cc2C(=O)N(C)c2ccc(Cl)nc21	-	EC50	RT-K103N Y181C	C8166	p24	<0.1 µM
CC/C=C\C/C=C\C/C=C\C/C=C\C/C=C\CCCC(=O)O[C@@H]1[C@@H](C)[C@@]2(O)[C@@H](C=C(CO)C[C@]3(O)C(=O)C(C)=C[C@@H]23)[C@@H]2C(C)(C)[C@]12O	IIIB	EC50	-	C8166	p24 / ELISA	5.325 µM
NC(=O)C[C@H](NC(=O)c1ccccc1SSc1ccccc1C(=O)N[C@@H](CC(N)=O)C(N)=O)C(N)=O	IIIB	EC50	-	CEM	cytopathic effect / XTT	>21 µM
CN1CCn2c(nc(C(=O)NCc3ccc(F)cc3)c(O)c2=O)C1CN(C)S(C)(=O)=O	-	EC50	-	MT-4	p24	1–10 µM
Cc1cc(Br)cc(C)c1OCC(=O)N[C@@H](Cc1ccccc1)[C@H](O)CN(CC(C)C)S(=O)(=O)c1ccc(-c2csc(Nc3ccccc3)n2)cc1	LAI	EC50	-	MT-4	cytopathic effect / MTT	100 µM
CCc1c(Cc2cc(Cl)cc(Cl)c2)n(COCC=C(C)C)c(=O)[nH]c1=O	NNRTI-resistant (RT K103N Y181C) A17	EC50	RT-K103N Y181C	MT-4	cytopathic effect / MTT	>10 µM
CCCC[C@@H](CCC(=O)O)NC(=O)c1ccccc1SSc1ccccc1C(=O)N[C@@H](CCCC)CCC(=O)O	IIIB	EC50	-	CEM	cytopathic effect / XTT	4.1 µM
CN(C)C(=O)C(=O)N1CCc2nc(C(=O)NCc3ccc(F)cc3)c(O)c(=O)n2CC1	-	EC95	-	MT-4	p24	<50 µM
NC(=O)C[C@H](NC(=O)c1ccccc1SSc1ccccc1C(=O)N[C@@H](CC(N)=O)C(=O)O)C(=O)O	IIIB	EC50	-	CEM	cytopathic effect / XTT	51 µM
CC(C)CN(C[C@@H](O)[C@H](Cc1ccccc1)NC(=O)O[C@H]1CO[C@H]2OCC[C@H]21)S(=O)(=O)c1ccc(-c2csc(N)n2)cc1	LAI	EC50	-	MT-4	cytopathic effect / MTT	0.003 µM
CCc1c(Cc2cc(Cl)cc(Cl)c2)n(COC2CCc3ccccc32)c(=O)[nH]c1=O	NNRTI-resistant (RT K103N Y181C) A17	EC50	RT-K103N Y181C	MT-4	cytopathic effect / MTT	10 µM
Cc1nnc(CN2CCn3c(nc(C(=O)NCc4ccc(F)cc4)c(O)c3=O)C2(C)C)o1	-	EC50	-	MT-4	p24	<1 µM
Nc1nccc2c1ncn2[C@@H]1C=C(CO)[C@@H](O)[C@H]1O	-	EC50	-	U1	p24	0.02–0.2 µM
O=C(O)CC[C@H](NC(=O)c1ccccc1SSc1ccccc1C(=O)N[C@@H](CCC(=O)O)C(=O)O)C(=O)O	IIIB	EC50	-	CEM	cytopathic effect / XTT	>100 µM

For reference, 6 entries again:

SMILES,strain or isolate,read-out,mutations,cell line,method,result
Cc1cccc(C)c1OCC(=O)N[C@@H](Cc1ccccc1)[C@H](O)CN(CC(C)C)S(=O)(=O)c1ccc(-c2csc(N)n2)cc1,LAI,EC50,-,MT-4,cytopathic effect / MTT,1.259 µM
O=C(NC1(C(=O)O)CCCC1)c1ccccc1SSc1ccccc1C(=O)NC1(C(=O)O)CCCC1,IIIB,EC50,-,CEM,cytopathic effect / XTT,>16 µM
CCCC[C@@H](CCC(=O)O)NC(=O)c1ccccc1SSc1ccccc1C(=O)N[C@@H](CCCC)CCC(=O)O,IIIB,EC50,-,CEM,cytopathic effect / XTT,4.1 µM
CC1(C)NCCCn2c1nc(C(=O)NCc1ccc(F)cc1)c(O)c2=O,-,EC95,-,MT-4,p24,<1 µM
CCN1c2ncc(CCOc3ccc(CC(=O)O)c4ccccc34)cc2C(=O)N(C)c2ccc(Cl)nc21,WT,EC50,-,C8166,p24,<0.1 µM
CC(C)CN(C[C@@H](O)[C@H](Cc1ccccc1)NC(=O)O[C@H]1CO[C@H]2OCC[C@H]21)S(=O)(=O)c1ccc(-c2csc(N)n2)cc1,LAI,EC50,-,MT-4,cytopathic effect / MTT,0.003 µM